{
  "source": "patent US9289381B2",
  "about": "“Stabilization and storage of biological pharmaceutical compositions” (The University of North Carolina at Charlotte, priority 2009, dated 2016)",
  "test_system": "HT-2 cells",
  "details": "rIL-2 10 or 100 U/ml",
  "data": [
    {"substance": "IL-2: Interleukin-2, a single 133 amino acid polypeptide of molecular weight 15.5 kDa; lyophilized IL-2, human (GenScript) in Example 5", "values": [
      {"measurement": "HT-2 cell proliferation", "value": "increased in a dose dependant manner"}
    ]}
  ]
}
